Measured values from several laboratories, pooled; numbers as filed in NIAID ChemDB.

Neighbouring rows are from separate reports.

| smiles | test | method | measure | dose | strain | species | cells | protein | result |
|---|---|---|---|---|---|---|---|---|---|
| Cc1cc(CCCOc2c(C)cc(-c3noc(C(F)(F)F)n3)cc2C)on1 | culture | cytopathic effect / visual reading | EC50 | - | Isolate 4 | Rhinovirus | OHIO HELA-I | - | 0.08 µg/mL |
| CC(=O)c1ccc(-c2cncc(N3CCN(c4cccc(C)c4C)CC3)n2)cc1 | target | - | inhibition | 10 µM | - | Cytomegalovirus | - | UL97 kinase | >15% |
| Nc1ccccc1S(=O)(=O)O | culture | cytopathic effect | inhibition | 10 µg/mL | TYPE 3 | Adenovirus | Human embryonic lung cells | - | 0% |
| Cc1ccc(N2CCN(c3cncc(-c4ccc5ccccc5c4)n3)CC2)c(C)c1 | target | - | inhibition | 10 µM | - | Cytomegalovirus | - | UL97 kinase | >15% |
| O=C(O)c1ccc(S(=O)(=O)[O-])cc1C(=O)O | culture | cytopathic effect | inhibition | 50 µg/mL | TYPE 3 | Adenovirus | Human embryonic lung cells | - | 0% |
| C=CCc1ccc(O)c(OC)c1 | culture | turbidity | MIC90 | - | 2863 | Candida tropicalis | - | - | 495 µg/mL |
| CCC(CC)O[C@@H]1C=C(C(=O)O)C[C@H](N)[C@H]1NC(C)=O | culture | - | EC50 | - | Influenza A/Washington/897/80 (H3N2) | Influenza A virus | MDCK | - | <0.01 µM |
| Clc1cccc(N2CCN(c3cncc(-c4ccsc4)n3)CC2)c1 | target | - | IC50 | - | - | Cytomegalovirus | - | UL97 kinase | <100 µM |
| O=S(=O)([O-])c1ccc2c(O)cc(S(=O)(=O)[O-])cc2c1 | culture | cytopathic effect | inhibition | 10 µg/mL | TYPE 3 | Adenovirus | Human embryonic lung cells | - | 43% |
| Fc1ccc(N2CCCCC2)c(NC(=S)c2ccncc2)c1 | host protein | kinase activity | inhibition | 10 µM | - | - | - | Ret (V804L) | 11% |
| O=S(=O)(O)c1ccc2ccc(S(=O)(=O)O)cc2c1 | culture | cytopathic effect | inhibition | 10 µg/mL | TYPE 3 | Adenovirus | Human embryonic lung cells | - | 0% |
| CSc1ccc(-c2cncc(N3CCN(c4cccc(C)c4)C(C)C3)n2)cc1 | target | - | inhibition | 10 µM | - | Cytomegalovirus | - | UL97 kinase | >15% |
| CCOC(=O)c1ccc(OCCC2CCN(c3ccc(C)nn3)CC2)cc1 | culture | neutral red | EC50 | - | JM1 (ICAM-1 receptor group 91) | Rhinovirus | KB | - | 0.271 µM |
| O=S(=O)(O)c1cccc2c(O)cccc12 | culture | cytopathic effect | inhibition | 5 µg/mL | - | Herpes simplex virus | Human conjunctiva cells | - | 0% |
| COc1ccc(N2CCN(c3cncc(-c4ccc(C(N)=O)cc4)n3)CC2)cc1 | target | - | IC50 | - | - | Cytomegalovirus | - | UL97 kinase | <1 µM |

A number after MIC or MFC names an inhibition level or a share of isolates. ICn is the concentration giving n% inhibition. Percent inhibition refers to the dose given; in toxicity tests it is the harm to the cells. An empty or dashed field is not shown. ECn: concentration that inhibits the pathogen or its effect by n%.